A mixed list of measured activities; the numbers were collected in NIAID ChemDB.

All rows: tests in culture; species: Mycobacterium avium complex; endpoint: MIC

Neighbouring rows are from separate reports.

smiles	strain	result
CCCCCCCCOC1O[C@@H](C(O)COC2O[C@@H](C(O)CO)[C@H](O)[C@H]2O)[C@H](O)[C@H]1O	NJ168	>128 µg/mL
CCCC(=O)O[C@H]1[C@H](C)OC(O[C@H]2[C@H](C)[C@@H](O[C@@H]3O[C@H](C)C[C@H](N(C)C)[C@H]3O)C(C)(O)C[C@@H](C)/C(=N\OCCCOc3ccccc3)[C@H](C)[C@@H](O)[C@](C)(O)[C@@H](CC)OC(=O)[C@@H]2C)C[C@@]1(C)OC	20039 (clarithromycin-susceptible)	1.56 µg/mL
CCCCCCCCO[C@@H]1O[C@@H]([C@H](COC)O[C@H]2O[C@H](COCc3ccccc3)[C@@H](OCc3ccccc3)[C@@H]2OCc2ccccc2)[C@H](OC)[C@H]1OC	NJ211	>128 µg/mL
CC[C@H]1OC(=O)[C@H](C)[C@@H](OC2C[C@@](C)(OC)[C@@H](OC(C)=O)[C@H](C)O2)[C@H](C)[C@@H](O[C@@H]2O[C@H](C)C[C@H](N(C)C)[C@H]2O)C(C)(O)C[C@@H](C)/C(=N\OCCCOc2ccccc2)[C@H](C)[C@@H](O)[C@]1(C)O	20096 (clarithromycin-resistant)	0.78 µg/mL
C[C@@H]1CN(c2c(F)c(N)c3c(=O)c(C(=O)O)cn(C4CC4)c3c2F)C[C@H](C)N1	N-265 (HIV-)	2 µg/mL
CC[C@H]1OC(=O)[C@H](C)[C@@H](O[C@H]2C[C@@](C)(OC)[C@@H](O)[C@H](C)O2)[C@H](C)[C@@H](O[C@@H]2O[C@H](C)C[C@H](N(C)C)[C@H]2O)[C@](C)(OC)C[C@@H](C)C(=O)[C@H](C)[C@@H](O)[C@]1(C)O	N-444	6.25 µg/mL
CCc1nc(N)nc(N)c1-c1ccc(Cl)cc1	DW11	16 µg/mL
CC1(C)N=C(N)N=C(N)N1OCCCOc1cc(Cl)c(Cl)cc1Cl	DW12	1 µg/mL
CCCCCCCCO[C@@H]1OC(C(CO[C@@H]2O[C@@H]([C@H](O)CO)[C@H](O)[C@H]2O)OC(C)=O)[C@H](OC(C)=O)[C@H]1OC(C)=O	NJ304	>128 µg/mL
COc1cc(-c2ccccc2)ccc1NCc1cnc2nc(N)nc(N)c2c1C	NJ3404	≤0.13 µg/mL
CO[C@H]1/C=C/O[C@@]2(C)Oc3c(C)c(O)c4c(=O)c(c5oc6cc(N7CCN(CC(C)C)CC7)cc(=O)c6nc5c4c3=C2O)NC(=O)/C(C)=C\C=C\[C@H](C)[C@H](O)[C@@H](C)[C@@H](O)[C@@H](C)[C@H](OC(C)=O)[C@@H]1C	N-316 (HIV-)	0.1 µg/mL
CCCNNC(=O)O[C@H]1[C@H](O[C@@H]2[C@@H](C)[C@H](O[C@H]3C[C@@](C)(OC)[C@@H](OC(C)=O)[C@H](C)O3)[C@@H](C)C(=O)O[C@H](CC)[C@@](C)(O)[C@H](O)[C@@H](C)/C(=N/OCCCC3CCCCC3)[C@H](C)CC2(C)O)O[C@H](C)C[C@@H]1N(C)C	20039 (clarithromycin-susceptible)	0.78 µg/mL
CCCCCCCCO[C@H]1OC([C@@H](COCc2ccccc2)O[C@H]2O[C@H]([C@@H](O)CO)[C@@H](O)[C@@H]2O)[C@@H](OCc2ccccc2)[C@@H]1OCc1ccccc1	NJ304	>128 µg/mL
CC[C@H]1OC(=O)[C@H](C)[C@@H](O[C@H]2C[C@@](C)(OC)[C@@H](O)[C@H](C)O2)[C@H](C)[C@@H](O[C@@H]2O[C@H](C)C[C@H](N(C)C)[C@H]2O)[C@](C)(OC)C[C@@H](C)C(=O)[C@H](C)[C@@H](O)[C@]1(C)O	N-314 (HIV-)	2 µg/mL
CC(C)N=c1cc2n(-c3ccc(Cl)cc3)c3ccccc3nc-2cc1Nc1ccc(Cl)cc1	1625	0.25 µg/mL
CCCCCCCCO[C@@H]1O[C@H]([C@@H](COCc2ccccc2)O[C@H]2O[C@H](COC(=O)c3ccccc3)[C@@H](OC(=O)c3ccccc3)[C@@H]2OC(=O)c2ccccc2)[C@H](OCc2ccccc2)[C@H]1OCc1ccccc1	NJ211	>128 µg/mL
CC[C@H]1OC(=O)[C@H](C)[C@@H](O[C@H]2C[C@@](C)(OC)[C@@H](O)[C@H](C)O2)[C@H](C)[C@@H](O[C@@H]2O[C@H](C)C[C@H](N(C)C)[C@H]2O)[C@](C)(OC)C[C@@H](C)C(=O)[C@H](C)[C@@H](O)[C@]1(C)O	900	1 µg/mL
CCc1c(CNc2cc(C(F)(F)F)ccc2OC)cnc2nc(N)nc(N)c12	NJ211	≤0.13 µg/mL
CCCCCCC(=O)O[C@H]1[C@H](C)[C@@H](O[C@@H]2O[C@H](C)C[C@H](N(C)C)[C@H]2O)C(C)(O)C[C@@H](C)/C(=N\OCCCOc2ccccc2)[C@H](C)[C@@H](O)[C@](C)(O)[C@@H](CC)OC(=O)[C@@H]1C	20096 (clarithromycin-resistant)	3.13 µg/mL
Cc1c(CNc2ccc3c(c2)Cc2ccccc2-3)cnc2nc(N)nc(N)c12	NJ211	≤0.13 µg/mL
CC[C@H]1OC(=O)[C@H](C)[C@@H](O[C@H]2C[C@@](C)(OC)[C@@H](O)[C@H](C)O2)[C@H](C)[C@@H](O[C@@H]2O[C@H](C)C[C@H](N(C)C)[C@H]2O)[C@](C)(OC)C[C@@H](C)C(=O)[C@H](C)[C@@H](O)[C@]1(C)O	MO-1	2 µg/mL
CCN=c1cc2n(-c3ccc(Cl)cc3)c3ccccc3nc-2cc1Nc1ccc(Cl)cc1	211	0.25 µg/mL
CCCCCCCCO[C@@H]1O[C@H]([C@@H](COC)O[C@H]2O[C@H](COC(=O)c3ccccc3)[C@@H](OC(=O)c3ccccc3)[C@@H]2OC(=O)c2ccccc2)[C@H](OC)[C@H]1OC	NJ168	>128 µg/mL
Cc1c(CNc2cccc3ccccc23)cnc2nc(N)nc(N)c12	NJ168	≤0.13 µg/mL
CO[C@H]1/C=C/O[C@@]2(C)Oc3c(C)c(O)c4c(O)c(c5c(c4c3C2=O)NC2(CCN(CC(C)C)CC2)N=5)=NC(=O)/C(C)=C\C=C\[C@H](C)[C@H](O)[C@@H](C)[C@@H](O)[C@@H](C)[C@H](OC(C)=O)[C@@H]1C	N-314 (HIV-)	0.5 µg/mL
CCCCCCCCO[C@@H]1O[C@@H](C(COCc2ccccc2)O[C@@H]2O[C@@H](C(COC(C)=O)OC(C)=O)[C@H](OC(C)=O)[C@H]2OC(C)=O)[C@H](OCc2ccccc2)[C@H]1OCc1ccccc1	NJ304	>128 µg/mL
C[C@@H]1CN(c2c(F)c(N)c3c(=O)c(C(=O)O)cn(C4CC4)c3c2F)C[C@H](C)N1	ATCC 15769	0.25 µg/mL
CCCCCCCCOC1OC([C@H](CO)OC2O[C@@H](C(O)CO)[C@H](O)[C@H]2O)[C@H](O)[C@H]1O	NJ168	>128 µg/mL
CC[C@H]1OC(=O)[C@H](C)[C@@H](O[C@H]2C[C@@](C)(OC)[C@@H](O)[C@H](C)O2)[C@H](C)[C@@H](O[C@@H]2O[C@H](C)C[C@H](N(C)C)[C@H]2O)[C@](C)(O)C[C@@H](C)CN(C)[C@H](C)[C@@H](O)[C@]1(C)O	LV-2	8 µg/mL
COc1ccc(OC)c(NCc2cnc3nc(N)nc(N)c3c2C)c1	NJ211	≤0.13 µg/mL
CCCCCCCCO[C@@H]1O[C@H]([C@@H](COC)O[C@H]2O[C@H](CO)[C@@H](O)[C@@H]2O)[C@H](OC)[C@H]1OC	NJ211	>128 µg/mL

A second listing of 3 rows from above:

smiles	strain	result
Cc1c(CNc2ccc3c(c2)Cc2ccccc2-3)cnc2nc(N)nc(N)c12	NJ211	≤0.13 µg/mL
CO[C@H]1/C=C/O[C@@]2(C)Oc3c(C)c(O)c4c(=O)c(c5oc6cc(N7CCN(CC(C)C)CC7)cc(=O)c6nc5c4c3=C2O)NC(=O)/C(C)=C\C=C\[C@H](C)[C@H](O)[C@@H](C)[C@@H](O)[C@@H](C)[C@H](OC(C)=O)[C@@H]1C	N-316 (HIV-)	0.1 µg/mL
CCCCCCCCOC1O[C@@H](C(O)COC2O[C@@H](C(O)CO)[C@H](O)[C@H]2O)[C@H](O)[C@H]1O	NJ168	>128 µg/mL